Test results: patent publication US12441773B2, “Peptides, hydrogel compositions and methods of use thereof” (Regents of the University of Minnesota, priority 2019, dated 2025)

What follows are compounds tested on human red blood cells (RBC). Details: calculated as LD50/MIC.
Type: cell-based
Description: FIG. 7: The in vitro toxicity of soluble DGL13K and PEG-pro-DGL 13K was tested against human Red Blood Cells and hemolysis recorded (% lysis compared to dH2O).
The dose causing lysis of 50% (LD50) of human red blood cells (RBC) was determined and the therapeutic index (Tx Indx) was calculated as LD50/MIC.

Row | Compound | Tx Indx (therapeutic index)
1 | CC[C@@H](C)[C@@H](NC(=O)[C@@H](CCCCN)NC(=O)CN)C(=O)N[C@@H](C(=O)N[C@H](CCCCN)C(=O)N[C@H](CC(C)C)C(=O)N[C@H](CCCCN)C(=O)N[C@H](C)C(=O)N[C@H](CO)C(=O)N[C@H](CC(C)C)C(=O)N[C@H](CCCCN)C(=O)N[C@H](CC(C)C)C(=O)N[C@H](CC(C)C)C(N)=O)[C@H](C)CC [DGL13K, NH2-Gly-d-Lys-d-Ile-d-Ile-d-Lys-d-Leu-d-Lys-d-Ala-d-Ser-d-Leu-d-Lys-d-Leu-d-Leu-CONH2] (H-G[dK][dI][dI][dK][dL][dK][dA][dS][dL][dK][dL][dL]-NH2) | 96-384 X
2 | H-GKIIKLKASLKLL-NH2 [LGL13K] | 9-18 X
3 | CC[C@@H](C)[C@@H](NC(=O)[C@@H](CCCNC(=N)N)NC(=O)CN)C(=O)N[C@@H](C(=O)N[C@H](CCCNC(=N)N)C(=O)N[C@H](CC(C)C)C(=O)N[C@H](CCCNC(=N)N)C(=O)N[C@H](C)C(=O)N[C@H](CO)C(=O)N[C@H](CC(C)C)C(=O)N[C@H](CCCNC(=N)N)C(=O)N[C@H](CC(C)C)C(=O)N[C@H](CC(C)C)C(N)=O)[C@H](C)CC [DGL13R, NH2-Gly-d-Arg-d-Ile-d-Ile-d-Arg-d-Leu-d-Arg-d-Ala-d-Ser-d-Leu-d-Arg-d-Leu-d-Leu-CONH2] (H-G[dR][dI][dI][dR][dL][dR][dA][dS][dL][dR][dL][dL]-NH2) | 192-384 X

Where a SMILES comes first, the peptide text is derived from it. [ ]: non-standard residue; d: D form.
